According to the CheMixHub viscosity set:

Experiment: xn = mol fraction of the nth substance listed

CCCCOP(=O)(OCCCC)OCCCC + CCc1ccccc1
viscosity [mPa·s], 100 kPa
Details | 303.15 K | 308.15 K | 313.15 K | 318.15 K | 323.15 K
x1 = 0.0506 | 0.676 | 0.634 | 0.598 | 0.567 | 0.535
x1 = 0.1005 | 0.758 | 0.711 | 0.671 | 0.634 | 0.6
x1 = 0.15 | 0.845 | 0.791 | 0.744 | 0.702 | 0.662
x1 = 0.1999 | 0.939 | 0.876 | 0.821 | 0.77 | 0.723
x1 = 0.25 | 1.038 | 0.964 | 0.9 | 0.84 | 0.784
x1 = 0.3 | 1.142 | 1.055 | 0.982 | 0.912 | 0.846
x1 = 0.3509 | 1.252 | 1.151 | 1.068 | 0.987 | 0.909
x1 = 0.3997 | 1.361 | 1.247 | 1.152 | 1.061 | 0.972
x1 = 0.4499 | 1.477 | 1.348 | 1.241 | 1.139 | 1.039
x1 = 0.5 | 1.596 | 1.451 | 1.333 | 1.219 | 1.108
x1 = 0.5498 | 1.718 | 1.557 | 1.427 | 1.301 | 1.179
x1 = 0.6001 | 1.844 | 1.667 | 1.524 | 1.387 | 1.253
x1 = 0.6491 | 1.969 | 1.777 | 1.621 | 1.472 | 1.328
x1 = 0.6991 | 2.1 | 1.891 | 1.722 | 1.561 | 1.406
x1 = 0.7498 | 2.235 | 2.01 | 1.826 | 1.654 | 1.488
x1 = 0.7999 | 2.373 | 2.131 | 1.932 | 1.747 | 1.57
x1 = 0.8502 | 2.514 | 2.255 | 2.039 | 1.842 | 1.653
x1 = 0.8996 | 2.656 | 2.38 | 2.147 | 1.937 | 1.734

CCCCOP(=O)(OCCCC)OCCCC + Cc1ccccc1
viscosity [mPa·s]
Details | 303.15 K | 303.2 K | 308.15 K | 313.15 K | 318.15 K | 323.15 K
100 kPa, x1 = 0.0488 | 0.619 | – | 0.581 | 0.551 | 0.521 | 0.493
100 kPa, x1 = 0.08 | – | 0.6417 | – | – | – | –
100 kPa, x1 = 0.1002 | 0.738 | – | 0.692 | 0.651 | 0.61 | 0.583
100 kPa, x1 = 0.1498 | 0.858 | – | 0.801 | 0.749 | 0.699 | 0.667
100 kPa, x1 = 0.19 | – | 0.9502 | – | – | – | –
100 kPa, x1 = 0.2021 | 0.988 | – | 0.917 | 0.854 | 0.793 | 0.751
100 kPa, x1 = 0.2499 | 1.109 | – | 1.024 | 0.95 | 0.879 | 0.825
100 kPa, x1 = 0.2998 | 1.235 | – | 1.134 | 1.049 | 0.969 | 0.9
100 kPa, x1 = 0.34 | – | 1.133 | – | – | – | –
100 kPa, x1 = 0.3495 | 1.36 | – | 1.244 | 1.147 | 1.056 | 0.972
100 kPa, x1 = 0.3995 | 1.485 | – | 1.352 | 1.244 | 1.142 | 1.044
100 kPa, x1 = 0.4496 | 1.608 | – | 1.46 | 1.338 | 1.225 | 1.114
100 kPa, x1 = 0.4998 | 1.728 | – | 1.566 | 1.431 | 1.307 | 1.183
100 kPa, x1 = 0.5504 | 1.848 | – | 1.672 | 1.523 | 1.387 | 1.252
100 kPa, x1 = 0.58 | – | 1.599 | – | – | – | –
100 kPa, x1 = 0.5999 | 1.963 | – | 1.774 | 1.612 | 1.464 | 1.319
100 kPa, x1 = 0.6488 | 2.076 | – | 1.874 | 1.698 | 1.539 | 1.386
100 kPa, x1 = 0.7 | 2.194 | – | 1.978 | 1.788 | 1.617 | 1.456
100 kPa, x1 = 0.7499 | 2.31 | – | 2.08 | 1.877 | 1.694 | 1.526
100 kPa, x1 = 0.8 | 2.43 | – | 2.184 | 1.968 | 1.774 | 1.597
100 kPa, x1 = 0.85 | 2.554 | – | 2.289 | 2.062 | 1.857 | 1.67
100 kPa, x1 = 0.9 | 2.685 | – | 2.398 | 2.161 | 1.946 | 1.745
101 kPa, x1 = 0.103 | 0.779 | – | 0.741 | 0.705 | 0.673 | –
101 kPa, x1 = 0.2 | 0.945 | – | 0.893 | 0.835 | 0.794 | –
101 kPa, x1 = 0.4 | 1.468 | – | 1.35 | 1.254 | 1.167 | –
101 kPa, x1 = 0.6 | 1.97 | – | 1.801 | 1.661 | 1.536 | –
101 kPa, x1 = 0.8 | 2.418 | – | 2.189 | 2 | 1.83 | –
101 kPa, x1 = 0.9 | 2.674 | – | 2.419 | 2.206 | 2.009 | –
101.33 kPa, x2 = 0.1 | 2.575 | – | 2.322 | 2.11 | 1.918 | –
101.33 kPa, x2 = 0.2 | 2.323 | – | 2.095 | 1.915 | 1.74 | –
101.33 kPa, x2 = 0.4 | 1.87 | – | 1.67 | 1.563 | 1.44 | –
101.33 kPa, x2 = 0.6 | 1.366 | – | 1.25 | 1.16 | 1.075 | –
101.33 kPa, x2 = 0.8 | 0.854 | – | 0.805 | 0.75 | 0.709 | –
101.33 kPa, x2 = 0.897 | 0.69 | – | 0.655 | 0.62 | 0.59 | –
